The values that follow come from the supplement of paper PMC9931576.

Numbering of substitutions follows the chain as printed. Human monoclonal antibodies against the spike receptor-binding domain (heavy:light variable regions). IC50 against pseudoviruses bearing the spike of naturally observed variants; lower = stronger; >10 µg/ml means not reached at the top dose. No active / inactive call. The stated detection limit is 0.0005 µg/ml; values near or below 0.001 µg/ml lie at the floor of the assay.

First the molecules themselves.
B1: BD55-1129 (protein)
chain 1: EVQLVESGGGLVQPGRSLRLSCAASGFFFDDYAMHWVRQAPGKGLEWVSGINWSSGTIAYADSVKGRFTISRDNTKSSLYLQMNSLRDDDTALYYCARDKVAEILPLGYFDPWGQGTLVIVSS
chain 2: QSVLTQPPSASGTPGQRVTISCSGSSSKIGFNTVNWYQQLPGAAPKLLIYTNNQRPSGVPDRFSGSKSGTSASLAISGLQSEDEADYYCAAWDDRLTGWVFGGGTKLTVL
B2: BD55-5941 (protein)
chain 1: QVQLVQSGAEVKKPGSSVKVSCKASGGTFSTYAISWVRQAPGQGLEWMGRIIPGVGIPNYAQKFQGRVTITADKSTSTVYMELSSLRFEDTAVYYCARDEGEYQLLYSWFDPWGQGTLVTVSS
chain 2: EIVMTQSPATLSVSPGERATLSCRASQSVSSNLAWYQQKPGQAPRLLIYGASTRATGIPARFSGSGSGTEFTLTISSLQSEDFAVYYCQQYNNWPPFGWTFGQGTKVEIK
B3: BD55-1140 (protein)
chain 1: QVQLVQSGAEVKKPGASLKVSCKASGYTFSSHYMHWVRQAPGQGLQWMGIINPSAGSTTYAQKFQGRITMTSDTSTTTVYMELSGLRYDDTAVYYCARDYGFLPHRAYFEYWGQGTLVSVSS
chain 2: EIVLTQSPATLSLSPGERATLSCRASQSISKYLAWYQQKPGQAPRLLIFDASNRATGIPARFSGSGSGTDFTLTISSVEPDDFAVYYCLQRSDWFTFGPGTKVDIK
B4: BD55-5969 (protein)
chain 1: QVTLKESGPVLVKPTETLTLTCTVSGFSLSNAKMGVSWIRQPPGKALEWLAHIFSNDEKSYSTSLRSRLTISKDTSKSQVILTMTNMDPVDTATYYCARILPLGYYYYAMDVWGQGTTVTVSS
chain 2: DIQMTQSPSSLSASVGDRVTITCRASQRIGSYLNWYQQRPGKAPKLLIYEASSLQSGVPSRFSGSGSGTYFTLTISSLEPEDFATYYCQQSYSTPGYTFGQGTKLDIK
B5: BD55-5983 (protein)
chain 1: QVQLQQSGPGLVKPSQTLSLTCTVSGGSIGSGGYYWSWIRQHPGKGLEWIGNIHYSGTTHYNPSLKSRLTISVDTSKNQFSLKLSSVNAADTAVYYCARDSAEGNYLYFGMDVWGQGTTVTVSS
chain 2: DIQMTQSPSSVSASVGDRVTITCRASQGISNWLAWYQQKPGKAPNLLIYAASTLQSGVPSRFSASGSGTDFTLTISSLQPEDFATYYCQQANSFPFTFGPGTKVDI
B6: BD55-5955 (protein)
chain 1: EVQLVESGGGLVQPGGSLRLSCAASGLTVSRNYMCWVRQAPGKGLEWVSVIYTGGGTNYADSVKGRVTISRDNSKNIVFLQMNSLRAEDTAVYFCAWYYYDGTGYARFDYWGQGTLVTVSS
chain 2: DIQMTQSPSSLPASVGDRVTITCRASQNISSYLNWYQQQPGKAPNLLIYAASSLQSGVPSRFSGSGSGTDFTLTIRSLQPEDFATYYCQQSYSALSITFGQGTRLEIK
B7: BD55-6012 (protein)
chain 1: EVQLVESGGGLVQPGRSLRLSCAASGFTFNDYAMHWLRQPPGKGLEWVSSITWSGGLTWKSGGIVYADSVKGRFTISRDSAKNSLYLQMNSLRTEDTALYYCAKDSLMFGDRSSWHNHWFDSWGQGTLVIVSS
chain 2: QSVLTQAPSASGTPGQRVTISCSGSNSNIGSNPVNWYQQLPGTAPKLLMYRNNQRPSGVPDRFSGSKSGTSASLVISGLQSEDEADYYCAAWDDSLNGWVFGGGTKLAVL
B8: BD55-5957 (protein)
chain 1: QVQLVQSGAEVKKPGASVKVSCKASGYTFTSYGISWVRQAPGQGLEWMGWISAYNGYTNYAQKLQGRVTMTTDTSTYTAYMELRSLRSDDTAVYYCGVTEGCSSTSCYTGYYYYGMDVWGQGTTVTVSS
chain 2: EIVLTQSPATLSLSPGERATLSCGASQNVSSTYLAWYQQKPGLAPRLLIYDASSRATGIPDRFSGSGSGTDFTLTISRLEPEDFAVYYCQQYGSSPRTFGQGTKVEIK
B9: BD55-5962 (protein)
chain 1: QVQLVQSGAEMKKPGSSVKVSCKASGGTFTSYAISWVRQAPGQGLEWMGRFIPILGIANYAQKFQDSVTLTADMSTTTAYMELSSLRYDDTAVYYCARDRYSGFDYDSVPDYWGQGTLVTVSS
chain 2: B8 chain 2 with A9G, G24R, N28S, T32S, Y37F, L43Q, D51A, Y92S, G93H, R97W
B10: BD55-5948 (protein)
chain 1: QMQLVQSGPEVKKPGTSVKVSCKASGFTFFSSAVQWVRQARGQRLEWIGWIVAGSGNTNYAQRFQERVTITRDMSTTTAYMELFSLRSEDTAVYYCAAVIPYYYQSIGSRFWGQGTLVTVSS
chain 2: DIQMTQSPSTLSASVGDRVTITCRASQNINNWLAWYQHKPGKAPKLLIYEASNLESGVPSRFSGSGSGTEFTLTISSLQPDDFATYYCQQYHRYSGGLGQGTKVEIK
B11: BD55-5992 (protein)
chain 1: QVQLQESGPGLVTPSQTLSLTCAVSGGSIGSGGYYWTWIRQYPGKGLEWIGKIHYSGSTHYNPSLKSRATMSVDPSKNQFALNLRSVTAADTAVYYCARDSAHGNYLYFGMDVWGQGTTVSVFS
chain 2: DIQMTQSPSSVSASVGDRVTITCRASQGVSTWVAWYQQKPAQAPRLLIYAASTLQTGVPSRFRGSGSGTDFTLTISSLQPDDFATYYCQQANSFPYTFGQGTKLEIR
B12: BD55-5989 (protein)
chain 1: QVQLVQSGAEVKKPGSSVKVSCKASGGTFSSYGINWARQAPGQGLEWMGGIIPIFGTTNYAQKFQGRVTIVADESTDTAYMELSGLRSEDTAVYYCARQIGNSRLDLRGEWGQGTRVTVSS
chain 2: DIQMTQSPSSLSASVGDRVTITCQASQDIGYSLNWFQQRPGKAPQLLIYDASNLEIGVPSRFSGSGSGTDFTFTISSLQPEDIATYYCQQYDDLPLTFGGGTQVE

For one assay, the target named is SARS-CoV-2 Omicron BA.1 spike pseudovirus. As to the kind of experiment: pseudovirus neutralization IC50; higher = weaker neutralization. How it is done: (§1)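 Single-round VSV luciferase pseudovirus mixed with antibody dilutions for 1 h and put on Huh-7 cells for about a day; IC50 from the dose curve.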
As to B1, the “pseudovirus neutralization IC50” value was > 10 µg/mL.
Take B2: the “pseudovirus neutralization IC50” value is > 10 µg/mL.
For the molecule B3, the “pseudovirus neutralization IC50” value was > 10 µg/mL.
For B4, the “pseudovirus neutralization IC50” value was > 10 µg/mL.
Take B5: the “pseudovirus neutralization IC50” value is > 10 µg/mL.
Same read-out and setting: the same measure for B6: 0.314 µg/mL; for B7: > 10 µg/mL.
Same read-out and setting: the same measure for B8: 0.788 µg/mL.
As for B9, the “pseudovirus neutralization IC50” value is > 10 µg/mL.
On the same count and under the same terms, to B10 belongs > 10 µg/mL; to B11, > 10 µg/mL.
Turning to B12, the “pseudovirus neutralization IC50” value is > 10 µg/mL.

Another assay deals with SARS-CoV-2 Omicron BA.2 spike pseudovirus. Described as above. The method, then:
as §1
Regarding B1, the “pseudovirus neutralization IC50” value was > 10 µg/mL.
For B2, the “pseudovirus neutralization IC50” value is > 10 µg/mL.
B3: the “pseudovirus neutralization IC50” value was > 10 µg/mL.
On to B4, for which the “pseudovirus neutralization IC50” value was > 10 µg/mL.
Turning to B5, the “pseudovirus neutralization IC50” value is > 10 µg/mL.
As for B6, the “pseudovirus neutralization IC50” value worked out at 0.304 µg/mL.
On the same count and under the same terms, the same measure for B7: > 10 µg/mL.
As for B8, the “pseudovirus neutralization IC50” value came out at 0.805 µg/mL.
Regarding B9, the “pseudovirus neutralization IC50” value was > 10 µg/mL.
Take B10: the “pseudovirus neutralization IC50” value was > 10 µg/mL.
On to B11, for which the “pseudovirus neutralization IC50” value is > 10 µg/mL.
On to B12, for which the “pseudovirus neutralization IC50” value is > 10 µg/mL.

A further assay has as its target SARS-CoV-2 Omicron BA.2.75 spike pseudovirus. The description is as above. How it is done: as §1
As to B1, the “pseudovirus neutralization IC50” value was > 10 µg/mL.
For B2, the “pseudovirus neutralization IC50” value is > 10 µg/mL.
Take B3: the “pseudovirus neutralization IC50” value is > 10 µg/mL.
Turning to B4, the “pseudovirus neutralization IC50” value was > 10 µg/mL.
Regarding B5, the “pseudovirus neutralization IC50” value is > 10 µg/mL.
On the same count and under the same terms, the same measure for B6: 0.23 µg/mL; for B7: > 10 µg/mL; for B8: 0.169 µg/mL.
The same measure, in the same setting: the same measure for B9: > 10 µg/mL; for B10: > 10 µg/mL; for B11: > 10 µg/mL.
Same read-out and setting: the same measure for B12: > 10 µg/mL.

The target of a further assay is SARS-CoV-2 Omicron BA.5 spike pseudovirus. The assay is described as above. How it is done:
as §1
Consider B1, for which the “pseudovirus neutralization IC50” value is > 10 µg/mL.
In the case of B2, the “pseudovirus neutralization IC50” value is > 10 µg/mL.
The same measure, in the same setting: the same measure for B3: > 10 µg/mL.
On the same count and under the same terms, to B4 belongs > 10 µg/mL; to B5, > 10 µg/mL.
For B6, the “pseudovirus neutralization IC50” value was > 10 µg/mL.
Still for that read-out and setting: to B7 belongs > 10 µg/mL.
For B8, the “pseudovirus neutralization IC50” value was > 10 µg/mL.
Still for that read-out and setting: to B9 belongs > 10 µg/mL; to B10, > 10 µg/mL; to B11, > 10 µg/mL.
As for B12, the “pseudovirus neutralization IC50” value is > 10 µg/mL.

Another assay deals with SARS-CoV-2 Omicron BQ.1.1 spike pseudovirus. Described as above. The method, then:
as §1
Take B1: the “pseudovirus neutralization IC50” value was > 10 µg/mL.
Take B2: the “pseudovirus neutralization IC50” value is > 10 µg/mL.
Same read-out and setting: to B3 belongs > 10 µg/mL; to B4, > 10 µg/mL; to B5, > 10 µg/mL.
For B6, the “pseudovirus neutralization IC50” value was > 10 µg/mL.
Take B7: the “pseudovirus neutralization IC50” value is > 10 µg/mL.
Regarding B8, the “pseudovirus neutralization IC50” value is > 10 µg/mL.
Take B9: the “pseudovirus neutralization IC50” value was > 10 µg/mL.
In the case of B10, the “pseudovirus neutralization IC50” value is > 10 µg/mL.
Same read-out and setting: the same measure for B11: > 10 µg/mL.
Still for that read-out and setting: to B12 belongs > 10 µg/mL.

The next assay deals with SARS-CoV-2 Omicron XBB spike pseudovirus. Described as above. The method, then: as §1
As to B1, the “pseudovirus neutralization IC50” value was > 10 µg/mL.
On to B2, for which the “pseudovirus neutralization IC50” value was > 10 µg/mL.
On the same count and under the same terms, the same measure for B3: > 10 µg/mL; for B4: > 10 µg/mL; for B5: > 10 µg/mL.
On to B6, for which the “pseudovirus neutralization IC50” value was > 10 µg/mL.
Same read-out and setting: the same measure for B7: > 10 µg/mL; for B8: > 10 µg/mL.
Still for that read-out and setting: to B9 belongs > 10 µg/mL.
Still for that read-out and setting: to B10 belongs > 10 µg/mL.
As to B11, the “pseudovirus neutralization IC50” value is > 10 µg/mL.
As to B12, the “pseudovirus neutralization IC50” value was > 10 µg/mL.

The next assay has as its target SARS-CoV-2 early D614G spike pseudovirus. The description is as above. How it is done:
as §1
For the molecule B1, the “pseudovirus neutralization IC50” value came out at 0.0942 µg/mL.
On the same count and under the same terms, the same measure for B2: > 10 µg/mL; for B3: > 10 µg/mL; for B4: > 10 µg/mL.
For the molecule B5, the “pseudovirus neutralization IC50” value is > 10 µg/mL.
Same read-out and setting: to B6 belongs 0.001 µg/mL; to B7, > 10 µg/mL.
Regarding B8, the “pseudovirus neutralization IC50” value was determined as 0.802 µg/mL.
On the same count and under the same terms, to B9 belongs > 10 µg/mL; to B10, 1.86 µg/mL.
Consider B11, for which the “pseudovirus neutralization IC50” value came out at 0.486 µg/mL.
Same read-out and setting: to B12 belongs > 10 µg/mL.
